PubChem BioAssay AID1259414 | Drosophila RNAi Screening Center, 2018
In all, the deposit lists about 24,000 reagents; below is an unselected part of those with a known target gene and a result. In the full data, about 1,210 (5%) are marked active. 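Inactive calls also include excluded dsRNAs with several or no targets, genes unexpressed in JW18, and well A1, regardless of score.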 Reagents against one gene are numbered here. A plus sign joins genes that one reagent is predicted to hit.

Assay: 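Genome-wide screen for host control of endosymbiont load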 (primary screen)
Cells: Drosophila JW18 cells infected with Wolbachia
Reagent: long dsRNA against Drosophila genes, 0.25 µg dsRNA per well of a 384-well plate
Timing: 5 days
Treatment: cells persistently infected with Wolbachia before knock-down; no added drug
Measured: 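Imaged fluorescence in situ signal for Wolbachia 23S rRNA per DAPI-counted host cell, given as a robust z-score within each plate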
Reading the numbers: Wolbachia per cell robust z: higher = more Wolbachia per host cell than the plate typical
Rule for the call: 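Hit when robust z is 1.5 or more, or -1.5 or less, in at least two of three replicates; excludes dsRNAs with several or no targets, genes not expressed in JW18 and well A1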

target	dsRNA no.	Wolbachia per cell robust z, rep 1	Wolbachia per cell robust z, rep 2	Wolbachia per cell robust z, rep 3	Outcome
HDAC6	1	-0.683	-1.44	-0.782	inactive
HDAC6	2	0.172	-3.65	0.788	inactive
CG7091	1	1.15	0.218	0.777	inactive
CG7091	2	0.167	0.562	0.672	inactive
Ltn1	1	-0.68	-1.92	-0.225	inactive
Ltn1	2	-0.151	0.475	-1.27	inactive
Mettl5 + CG42374	1	-0.672	-1.16	-0.146	inactive
sax	1	0.514	-0.0357	-3.44	inactive
sax	2	0.182	-0.391	-0.895	inactive
Duox	1	-0.292	0.447	-0.255	inactive
Snx16	1	-2.21	-0.294	0.00145	inactive
CG10918	1	0.49	0.229	0.622	inactive
CG10918	2	-2.05	0.33	-4.35	inactive
RIOK2	1	1.13	-0.00356	0.216	inactive
Esp	1	-1.34	-1.17	-0.532	inactive
Grip84	1	1.11	0.687	-1.4	inactive
Grip84	2	-0.343	0.237	-0.675	inactive
Vha14-1	1	1.62	1.57	0.439	active
CG42727 + CG42726	1	-0.283	-2.13	-0.179	inactive
CG42727 + CG42726	2	0.0334	0.516	0.797	inactive
Tsp	1	0.723	-0.0114	-3.43	inactive
Tsp	2	-0.771	-0.0933	-0.00425	inactive
CG9356	1	-2.6	0.808	-4.57	active
nudE	1	0.106	-0.499	-5.06	inactive
nudE	2	-0.348	-1.59	-0.938	inactive
nudE	3	-0.585	0.832	0.137	inactive
CG34310	1	-4.37	-0.9	-1.81	active
hdly	1	0.982	-0.606	0.616	inactive
MESK4 + CG31274	1	-0.411	-0.904	-1.75	inactive
CG9222	1	0.636	-10.4	-4.15	inactive
CG17239	1	-0.965	0.993	0.945	inactive
fzy	1	-7.75	0.802	0.107	inactive
fzy	2	-0.681	1.45	0.663	inactive
yellow-d2	1	0.681	0.366	-3.64	inactive
CG10063	1	-1.18	-1.63	0.323	inactive
CG10063	2	-0.335	0.31	1.04	inactive
CG12661	1	-1.68	-2.91	-1.49	inactive
CG12661	2	-2.37	-0.697	0.239	inactive
Alp7	1	1.58	-0.859	-1.19	inactive
Alp7	2	0.513	-0.266	0.934	inactive
cu	1	-1.21	0.299	0.144	inactive
cu	2	-3.49	0.357	-7.33	active
CG2116	1	0.447	0.0063	-6.75	inactive
CG2116	2	-1.82	-1.58	0.107	active
stg	1	6.93	7.84	4.1	active
stg	2	-6.16	-1.12	-1.39	inactive
stg	3	-0.259	0.337	0.561	inactive
RpL34a	1	-3.9	0.778	-0.0939	inactive
CG13862	1	-0.778	-0.391	-0.755	inactive
pasi2	1	-2.67	-0.186	1.11	inactive
CG13674	1	0.148	0.554	0.532	inactive
CG13674	2	0.393	0.719	0.246	inactive
pll	1	-0.274	1.32	-0.451	inactive
pll	2	0.81	1.12	0.755	inactive
CG33306	1	-0.179	0.308	-0.0123	inactive
CG33306	2	0.375	-0.0263	1.21	inactive
CG13369	1	-0.886	-1.37	-0.595	inactive
CG13369	2	-0.346	-6.88	0.235	inactive
Mdr65	1	0.91	0.636	0.558	inactive
CG33630	1	0.308	-0.217	-0.212	inactive
shps	1	-0.25	0.472	-0.88	inactive
Tango5	1	-4.61	0.387	-0.188	inactive
Tango5	2	-0.105	-1.51	0.0557	inactive
CG30116	1	-1.38	0.11	-0.0484	inactive
CG30116	2	-0.504	0.0107	-1.6	inactive
Patronin	1	-0.46	-0.479	0.842	inactive
Patronin	2	0.0408	-0.801	0.198	inactive
Patronin	3	0.803	0.939	0.675	inactive
